# Source: US12583911B2, “Human immunodeficiency virus GP120 binding proteins” (ViiV Healthcare UK (No.5) Limited, priority 2022, dated 2026)
# Where a chain is given by its changes, count along the chain named. Names and notes keep the numbering of the source.
# B1: bNAb7: anti-V3 broadly neutralizing antibody; HC with LS SEQ ID NO:258, LC SEQ ID NO:259 (antibody)
# heavy: QVHLQESGPGLVKPSETLSLTCNVSGTLVRDNYWSWIRQPLGKQPEWIGYVHDSGDTNYNPSLKSRVHLSLDKSKNLVSLRLTGVTAADSAIYYCATTKHGRRIYGVVAFKEWFTYFYMDVWGKGTSVTVSSASTKGPSVFPLAPSSKSTSGGTAALGCLVKDYFPEPVTVSWNSGALTSGVHTFPAVLQSSGLYSLSSVVTVPSSSLGTQTYICNVNHKPSNTKVDKKV[human IgG1 Fc with changes not given here]
# light: TFVSVAPGQTARITCGEESLGSRSVIWYQQRPGQAPSLIIYNNNDRPSGIPDRFSGSPGSTFGTTATLTITSVEAGDEADYYCHIWDSRRPTNWVFGEGTTLIVLGQPKAAPSVTLFPPSSEELQANKATLVCLISDFYPGAVTVAWKADSSPVKAGVETTTPSKQSNNKYAASSYLSLTPEQWKSHRSYSCQVTHEGSTVEKTVAPTECS
# modifications: LS Fc mutation
# B2: D1m-K8C-G99C_1xG4S_bNAb10: bispecific: D1m-K8C-G99C fused via 1xG4S to bNAb10 heavy chain; SEQ ID NOs 341 + 274 (antibody)
# heavy: KKVVYGKCGDTVELTCTASQKKNIQFHWKNSNQIKILGNQGSFLTKGPSKLNDRVDSRRSLWDQGNFPLIIKNLKPEDSDTYICEVEDQKEEVQLVVVCGGGGSQPQLQESGPGLVEASETLSLTCTVSGDSTAACDYFWGWVRQPPGKGLEWIGGLSHCAGYYNTGWTYHNPSLKSRLTISLDTPKNQVFLKLNSVTAADTAIYYCARFDGEVLVYHDWPKPAWVDLWGRGTLVTVTVSSASTKGPSVFPLAPSSKSTSGGTAALGCLVKDYFPEPVTVSWNSGALTSGVHTFPAVLQSSGLYSLSSVVTVPSSSLGTQTYICNVNHKPSNTKVDKKV[human IgG1 Fc with changes not given here]
# light: QSALTQPPSASGSPGQSISISCTGTSNRFVSWYQQHPGKAPKLVIYGVNKRPSGVPDRFSGSKSGNTASLTVSGLQTDDEAVYYCSSLVGNWDVIFGGGTKLTVLGQPKAAPSVTLFPPSSEELQANKATLVCLISDFYPGAVTVAWKADSSPVKAGVETTTPSKQSNNKYAASSYLSLTPEQWKSHRSYSCQVTHEGSTVEKTVAPTECS
# B3: D1m-K8C-G99C_1xG4S_bNAb11: bispecific: D1m-K8C-G99C fused via 1xG4S to bNAb11 heavy chain; SEQ ID NOs 342 + 279 (antibody)
# heavy: KKVVYGKCGDTVELTCTASQKKNIQFHWKNSNQIKILGNQGSFLTKGPSKLNDRVDSRRSLWDQGNFPLIIKNLKPEDSDTYICEVEDQKEEVQLVVVCGGGGSQPQLQESGPGLVEASETLSLTCTVSGDSTGRCNYFWGWVRQPPGKGLEWIGSLSHCRSYYNTDWTYHNPSLKSRLTISLDTPKNQVFLRLTSVTAADTATYYCARFGGEVLVYRDWPKPAWVDLWGRGTLVTVSSASTKGPSVFPLAPSSKSTSGGTAALGCLVKDYFPEPVTVSWNSGALTSGVHTFPAVLQSSGLYSLSSVVTVPSSSLGTQTYICNVNHKPSNTKVDKKV[human IgG1 Fc with changes not given here]
# light: B2 light with S19T, R28N, H36Y, G47E, N66S, T77A, A81G
# B4: bNAb19: anti-V3 broadly neutralizing antibody; HC with LS SEQ ID NO:318, LC SEQ ID NO:319 (antibody)
# heavy: EVQLVESGGGLVKAGGSLILSCGVSNFRISAHTMNWVRRVPGGGLEWVASISTSSTYRDYADAVKGRFTVSRDDLEDFVYLQMHKMRVEDTAIYYCARKGSDRLSDNDPFDAWGPGTVVTVSPASTKGPSVFPLAPSSKSTSGGTAALGCLVKDYFPEPVTVSWNSGALTSGVHTFPAVLQSSGLYSLSSVVTVPSSSLGTQTYICNVNHKPSNTKVDKKV[human IgG1 Fc with changes not given here]
# light: DVVMTQSPSTLSASVGDTITITCRASQSIETWLAWYQQKPGKAPKLLIYKASTLKTGVPSRFSGSGSGTEFTLTISGLQFDDFATYHCQHYAGYSATFGQGTRVEIKRTVAAPSVFIFPPSDEQLKSGTASVVCLLNNFYPREAKVQWKVDNALQSGNSQESVTEQDSKDSTYSLSSTLTLSKADYEKHKVYACEVTHQGLSSPVTKSFNRGEC
# modifications: LS Fc mutation
# Legend:
# [1] = test system: panel of HIV-1 envelopes (pseudotyped HIV-1 virus); assay: PSV assay (ACTOne cells), HIV-1 envelopes; type: cell-based
# Method: (§1) The anti-viral activity of the antigen binding proteins was measured in a pseudotyped virus (PSV) assay.
# (§2) PSV was produced in HEK-293T cells (ATCC, Manassas VA) by co-transfecting expression plasmids encoding the HIV-1 gp160 envelope gene and an HIV-1 backbone plasmid using TRANSIT-2020 transfection reagent (Mirus Bio, Madison WI). A panel of HIV-1 PSVs expressing different gp160 envelope trimers was generated to evaluate the effectiveness of the antigen binding proteins of the invention against a wide spectrum of HIV-1 strains.
# (§3) The genome of PSV used in this assay contains a luciferase gene that is expressed once the virus enters cells. Accordingly, the luminescence signal (after adding a substrate of luciferase) can be used to determine the level of viral infection.
# The 50% tissue culture infectious dose (TCID) of a single thawed aliquot of each batch of PSV was determined in ACTOne cells. The ACTOne cell-line used in this assay was derived in-house from a genetically engineered 293T cell clone that expresses CD4, CXCR4, and CCR5. Cells were maintained in growth medium composed of Dulbecco's modified Eagle's medium (DMEM, Life Technologies) at 37° C. in a humidified 5% CO2-95% air environment. Cell monolayers were split by treatment with Trypsin-EDTA (0.05%).
# To run the anti-viral assay, ACTOne cells were detached by treating the cell culture flask with trypsin (trypsinization) and resuspended in growth medium containing 2% of DMSO to a density of 2.5×10^5 cells/ml. One hundred μl of such cells was added to 10 μl of antigen binding protein pre-loaded in a 96-well plate. Ninety μl of PSV was then added to each well. The assay plates were incubated at 37° C. in a humidified incubator at 5% CO2 level. Plates were developed after 72 hours of incubation by adding 50 μl of BRIGHTGLO luciferase reagent (Promega, Madison WI) to each well, and transferring the plates to an ENVISION multilabel plate reader (PerkinElmer, Waltham MA) to measure the luminescence and determine the level of virus that had infected the cells. The higher the luminescence signal, the higher the level of infection.
# [2] = test system: HIV-2 Env-pseudotypes (HIV-2-AID, HIV-2-ATM88, HIV-2-HCC-01); assay: PSV assay (ACTOne cells), HIV-2 envelopes; type: cell-based; settings: envelope HIV-2-HCC-01
# Method: as §1, §2, §3
# The 50% tissue culture infectious dose (TCID) of a single thawed aliquot of each batch of PSV was determined in ACTOne cells. The ACTOne cell-line used in this assay was derived in-house from a genetically engineered 293T cell clone that expresses CD4, CXCR4, and CCR5. […]
# To run the anti-viral assay, ACTOne cells were detached by treating the cell culture flask with trypsin (trypsinization) and resuspended in growth medium containing 2% of DMSO to a density of 2.5×10^5 cells/ml. […] The higher the luminescence signal, the higher the level of infection. […]
molecule,measurement,setting,value
B1,IC50,"[1]; envelope 93UG065, PSV assay",> 500 nM
same,IC50,"[1]; envelope 0260.v5.c36, PSV assay",0.75 nM
same,IC50,"[1]; envelope 928_28, PSV assay",32.7 nM
same,IC50,"[1]; envelope 3326_V4_C3, PSV assay",> 500 nM
same,IC50,"[1]; envelope 3468_V1_C12, PSV assay",> 500 nM
same,IC50,"[1]; envelope 3637_V5_C3, PSV assay",> 500 nM
same,IC50,"[1]; envelope 6471_V1_C16, PSV assay",> 500 nM
same,IC50,"[1]; envelope 42368, PSV assay",> 500 nM
same,IC50,"[1]; envelope 620345_C1, PSV assay",> 500 nM
same,IC50,"[1]; envelope Q461_E2, PSV assay",> 500 nM
same,IC50,"[1]; envelope TH976_17, PSV assay",> 500 nM
same,IC50,"[1]; envelope X2088.C9, PSV assay",0.22 nM
same,IC50,"[1]; envelope YU-2, PSV assay",0.58 nM
same,IC50,"[1]; envelope ZM106.9, PSV assay",0.04 nM
B2,IC50,[2],0.95 nM
B3,IC50,[2],8.69 nM
B4,IC50,[1]; envelope 3326_V4_C3,> 300 nM
same,IC50,[1]; envelope 3468_V1_C12,> 300 nM
same,IC50,[1]; envelope 3637_V5_C3,> 300 nM
same,IC50,[1]; envelope 42368,> 300 nM
same,IC50,[1]; envelope Q461_E2,> 300 nM
same,IC50,[1]; envelope X2088.C9,> 300 nM
same,IC50,[1]; envelope ZM106.9,> 300 nM
